PubChem BioAssay AID1637 (Sanford-Burnham Center for Chemical Genomics, 2009)
The list shows a part of the results, in another mix than the full data. Calls of active or inactive are those of the source. How the calls were made is not given here.

Assay: NMR binding screen, influenza A RNA promoter, Kd (AID 1637)
Details: NMR binding to influenza A RNA promoter

| SMILES | Kd |
| --- | --- |
| OC1CN2CCC1CC2 (configuration not stated) | inactive: > 4 mM |
| CP(N)(=O)Oc1ccc(Cl)cc1 (configuration not stated) | inactive: > 4 mM |
